Anti-infective test results gathered from many reports (values: NIAID ChemDB through PubChem).

Shared fields: tests in culture; species: Mycobacterium bovis BCG

ECn: concentration that inhibits the pathogen or its effect by n%. MIC50, MIC90 and the like: level of inhibition, or share of isolates inhibited. An empty or dashed field is not shown. Zone: diameter of growth inhibition. Rows are shuffled and stem from different studies.

compound,strain or isolate,read by,conditions,endpoint,dose,value
C#CC(C)(CC)OC(C)=O,1173P2,resazurin,24 h,MIC,-,125 µg/mL
CCCCn1cc(/C=N/NC(=S)NN)c2ccccc21,1173P2,broth dilution,24 h,MIC100,-,>500 µg/mL
O=C(N[C@H]([C@H](O)CNCc1cccc(I)c1)C(F)(F)c1ccccc1)OCc1ccccc1,Tice,agar diffusion,-,zone,50 µg/disc,0 mm
NNC(=S)N/N=C/c1c[nH]c2ccccc12,1173P2,broth dilution,48 h,MIC100,-,250 µg/mL
COc1ccc(-c2ccc3[nH]c4cc(C(C)C(=O)O)ccc4c3c2)cc1,-,resazurin / visual reading / absorbance,-,MIC99,-,31.3 µg/mL
C#CCOC(C)=O,1173P2,resazurin,48 h,MIC,-,125 µg/mL
CCCc1c2c([nH]c(=O)c1C)C(=O)c1[nH]c(=O)c(C)c(CCC)c1C2=O,ATCC 35734,resazurin / fluorescence,-,MIC90,-,0.12 µg/mL
C#CC(C)O,1173P2,resazurin,48 h,MIC,-,125 µg/mL
O=C(O)c1cc(C(F)(F)F)cc2c(=O)nc(N3CCN(CC4CCCCC4)CC3)sc12,Pasteur,resazurin,-,MIC99,-,0.0006 µg/mL
C(=N\Nc1nncs1)/c1cn(CC2CC2)c2ccccc12,1173P2,broth dilution,24 h,MIC100,-,7.81 µg/mL
C=CC1CN2CCC1CC2C[C@H](O)c1ccnc2ccc(OC)cc12,-,agar,-,MIC95,-,>200 µg/mL
CC(C(=O)O)c1ccc2c(c1)[nH]c1ccc(-c3ccccc3)cc12,-,resazurin / visual reading / absorbance,-,MIC99,-,62.5 µg/mL
Ic1ccc2c(c1)N(c1ccccc1)c1cc(Nc3ccc4nc5ccc(I)cc5[n+](-c5ccccc5)c4c3)ccc1N2,Pasteur,-,-,MIC,-,25 µM
NNC(=O)c1ccncc1,BCG,broth dilution,-,EC50,-,0.13 µM
Cc1cccc(Cn2cc(/C=N/NC(=S)NN)c3ccccc32)c1,1173P2,broth dilution,48 h,MIC100,-,>500 µg/mL
COC(=O)Cc1ccc2[nH]c3ccc(OC)cc3c2c1,-,resazurin / visual reading / absorbance,-,MIC99,-,31.3 µg/mL
COc1ccc(Cn2cc(/C=N/NC(=S)NN)c3ccccc32)cc1,1173P2,broth dilution,24 h,MIC100,-,>500 µg/mL
C[C@H]1COC2(CCN(c3nc(=O)c4cc(C(F)(F)F)cc(C(=O)O)c4s3)CC2)O1,BN2,resazurin,-,MIC99,-,>100 µg/mL
Cc1nc(NCCc2ccc(OC(F)(F)F)cc2)c2ccc(F)cc2n1,-,luminescence,-,MIC50,-,3.27 µM
O=C(O)Cc1ccc2[nH]c3cc(Cl)ccc3c2c1,-,resazurin / visual reading / absorbance,-,MIC99,-,125 µg/mL
Nc1ccccc1O.O.O=C(O)C1[O][Sb][O]C1C(=O)O,Pasteur,-,-,MIC,-,25 µM
CCCCn1cc(CN2CCCCC2)c2cc(F)ccc21,-,turbidity,-,MIC50,-,50 µM
Cn1cc(/C=N/Nc2nncs2)c2ccccc21,1173P2,broth dilution,24 h,MIC100,-,15.63 µg/mL
COc1ccccc1-c1ccc2[nH]c3cc(C(C)C(=O)O)ccc3c2c1,-,resazurin / visual reading / absorbance,-,MIC99,-,125 µg/mL
CCCCn1cc(/C=N/Nc2nncs2)c2ccccc21,1173P2,broth dilution,48 h,MIC100,-,3.91 µg/mL
[O-]c1ccccc1CNCCCCCCNCCCCCCCCNCCCCCCNCc1ccccc1[O-],Pasteur,-,-,MIC,-,1.56 µM
C#CC(CCCCC)OC(=O)CCCCCC,1173P2,resazurin,24 h,MIC,-,62.5 µg/mL
N#Cc1cccc(Cn2cc(/C=N/Nc3nncs3)c3ccccc32)c1,1173P2,broth dilution,24 h,MIC100,-,125 µg/mL

For reference, 2 entries again:

{"compound": "COc1ccc(-c2ccc3[nH]c4cc(C(C)C(=O)O)ccc4c3c2)cc1", "read by": "resazurin / visual reading / absorbance", "endpoint": "MIC99", "value": "31.3 µg/mL"}
{"compound": "CCCCn1cc(CN2CCCCC2)c2cc(F)ccc21", "read by": "turbidity", "endpoint": "MIC50", "value": "50 µM"}